Results of unrelated studies side by side (data: NIAID ChemDB).

Common to all: growth or infection tests

Two numbers with a dash give a range or band. A number after MIC or MFC names an inhibition level or a share of isolates. Inhibition is in % at the dose shown (toxicity tests: loss of growth or viability). ECn: concentration that inhibits the pathogen or its effect by n%. Blank or dashed fields: not listed here. Conditions beyond the fields shown may differ between rows.

| compound | species | strain | cell line | method | measure | dose | value |
|---|---|---|---|---|---|---|---|
| O=C(Nc1cc(S(=O)(=O)O)cc2cc(S(=O)(=O)O)cc(O)c12)c1ccccc1 | Adenovirus | TYPE 3 | Human amnion AV3 cells | cytopathic effect | inhibition | 50 µg/mL | 0% |
| COc1ccc(CN2C[C@@H](O)Cn3c(c4n(c3=O)CCN(C(=O)c3ccc(Br)c(Cl)c3)C4)C2=O)cc1 | Hepatitis B virus | - | HepG2.117 | PCR | EC50 | - | 0.1–0.5 µM |
| O=S(=O)(O)c1cc(O)c2c(O)c(N=Nc3ccccc3)c(S(=O)(=O)O)cc2c1 | Herpes simplex virus | - | Human conjunctiva cells | cytopathic effect | inhibition | 50 µg/mL | 100% |
| Oc1cccc(C=Nc2ccccc2O)c1 | Cryptococcus neoformans | 96806 | - | - | MIC99 | - | 4 µg/mL |
| COc1ccc(-n2c(C(=O)N[C@H](C)c3ccccc3F)c3n(c2=O)CCN(C(=O)c2ccc(Br)c(Cl)c2)C3)cc1 | Hepatitis B virus | - | HepG2.117 | PCR | EC50 | - | <0.1 µM |
| CCOC(=O)c1c(C)nc(NCCCCNc2ccnc3cc(Cl)ccc23)nc1-c1ccccc1 | Cryptococcus gattii | ATCC 32608 | - | - | MIC99 | - | 16 µg/mL |
| C[C@H]1Cn2c(c(C(=O)NCc3ccccc3)n(-c3ccc(OC4CC4)cc3)c2=O)CN1C(=O)c1ccc(Br)c(Cl)c1 | Hepatitis B virus | - | HepG2.117 | PCR | EC50 | - | 0.1–0.5 µM |
| O=c1[nH]c(=O)n([C@H]2C[C@H](O)[C@@H](CO)O2)cc1I | Varicella zoster virus | Kawaguchi | HELF | plaque count | inhibition | 10 µg/mL | 100% |
| Oc1ccccc1N=Cc1cccc(O)c1O | Cryptococcus gattii | L24/01 | - | - | MIC99 | - | 2.8 µg/mL |
| CN[C@H]1CC[C@@H](c2ccc(Cl)c(Cl)c2)c2ccccc21 | Cryptococcus neoformans | 163.99 | - | broth dilution | MFC | - | 6 µg/mL |
| CCOC(=O)c1c(C)nc(OCCCNc2ccnc3cc(Cl)ccc23)nc1-c1ccccc1 | Cryptococcus gattii | 23/10993 | - | - | MIC99 | - | 5.7 µg/mL |
| Nc1ccc2cc([N+](=O)[O-])cc(S(=O)(=O)[O-])c2c1 | Adenovirus | TYPE 3 | Human amnion AV3 cells | cytopathic effect | inhibition | 5 µg/mL | 0% |
| Cc1nc(NCCCCNc2ccnc3cc(Cl)ccc23)nc(-c2ccccc2[N+](=O)[O-])c1C(=O)OC(C)C | Cryptococcus gattii | 29/10893 | - | - | MIC99 | - | 4 µg/mL |
| O=S(=O)(O)c1cc(O)c2c(O)cc(S(=O)(=O)O)cc2c1 | Adenovirus | TYPE 3 | Human amnion AV3 cells | cytopathic effect | inhibition | 50 µg/mL | 50% |
| O=c1[nH]c(=O)n([C@H]2C[C@H](O)[C@@H](CO)O2)cc1/C=C/Br | Varicella zoster virus | KANNO | HELF | plaque count | inhibition | 0.001 µg/mL | 0% |
| CCOC(=O)c1ccc(OCCC2CCN(c3ccc(C)nn3)CC2)cc1 | Rhinovirus | FEB (ICAM-1 receptor group 3) | KB | neutral red | EC50 | - | 0.108 µM |
| CC(=O)N[C@H]1[C@H]([C@H](O)[C@H](O)CO)OC(C(=O)O)=C[C@@H]1N=C(N)N | Influenza A virus | Influenza A/Shandong/09/93 (H3N2) | MDCK | - | EC50 | - | 0.5 µM |
| CCOC(=O)/C=C/[C@H](C[C@@H]1CCNC1=O)NC(=O)[C@@H](CC(=O)[C@@H](NC(=O)c1cc(C)on1)C(C)C)Cc1ccc(F)cc1 | Rhinovirus | Isolate 12 | OHIO HELA-I | cytopathic effect / visual reading | EC50 | - | <0.01 µg/mL |
| O=S(=O)([O-])c1ccccc1S(=O)(=O)[O-] | Herpes simplex virus | - | Human amnion AV3 cells | cytopathic effect | inhibition | 10 µg/mL | 0% |
| O=C(NCc1ccc(Cl)cc1)c1c[nH]c2ccc(C#CCO)cc2c1=O | Rat cytomegalovirus | - | - | plaque count | EC50 | - | 0.6 µM |
| O=c1[nH]c(=O)n([C@@H]2O[C@H](CO)[C@@H](O)[C@@H]2O)cc1/C=C/Br | Varicella zoster virus | Ohtomo | HELF | plaque count | inhibition | 0.01 µg/mL | 100% |
| Nc1ncnc2c1ncn2C=C1CC1CO | Human cytomegalovirus | VR4990 (ganciclovir-resistant) | - | plaque count | EC50 | - | 3.9 µM |
| Cc1cn([C@@H]2O[C@H](CO)[C@@H](O)[C@@H]2F)c(=O)nc1N | Varicella zoster virus | OKA | HELF | plaque count | inhibition | 0.01 µg/mL | 50% |
| Cn1cc(C(=O)NCc2ccc(Cl)cc2)c(=O)c2cc(CN3CCOCC3)ccc21 | Varicella zoster virus | CA varicella isolate | HFF | plaque count | inhibition | 2.2 µM | 90% |
| O=c1[nH]c(=O)n([C@@H]2O[C@H](CO)[C@@H](O)[C@@H]2O)cc1/C=C/Cl | Varicella zoster virus | YS | HELF | plaque count | inhibition | 0.001 µg/mL | 53% |
| C=CCc1ccc(O)c(OC)c1 | Candida albicans | 3001 | - | turbidity | MIC90 | - | 490 µg/mL |
| CCOC(=O)c1c(C)nc(NCCCNc2ccnc3cc(Cl)ccc23)nc1-c1ccccc1 | Cryptococcus neoformans | ATCC 62066 | - | - | MIC99 | - | 8 µg/mL |
| O=S(=O)([O-])c1cc(S(=O)(=O)[O-])c2cc(NS(=O)(=O)c3ccccc3)ccc2c1 | Herpes simplex virus | - | Human amnion AV3 cells | cytopathic effect | inhibition | 5 µg/mL | 0% |
| C/C=C\[C@@H]1C[C@H](C(=O)O)N[C@H]1[C@@H](NC(C)=O)[C@](C)(CCC)OC | Influenza A virus | H1N1 isolate C9D | MDCK | plaque count | EC50 | - | 0.15 µg/mL |
| O=C(NCc1ccccc1-c1cnccn1)c1c2n(c(=O)n1-c1ccc(OCC(F)(F)F)cc1)CCN(C(=O)c1ccc(Br)c(Cl)c1)C2 | Hepatitis B virus | - | HepG2.117 | PCR | EC50 | - | <0.1 µM |